{"source": "PubChem BioAssay AID1259414 (Drosophila RNAi Screening Center, 2018)", "test": "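Host factors increasing or decreasing Wolbachia levels in cultured fly cells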 (primary screen)", "cells": "Drosophila JW18 cells infected with Wolbachia", "reagents": "long dsRNA against Drosophila genes, 0.25 µg dsRNA per well of a 384-well plate", "timing": "5 days", "treatment": "cells persistently infected with Wolbachia before knock-down; no added drug", "detection": "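Automated imaging of bacterial rRNA staining divided by host cell count, reported as plate-normalised robust z-score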", "reading the numbers": "Wolbachia per cell robust z: higher = more Wolbachia per host cell than the plate typical", "hit rule": "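Active if absolute robust z reaches 1.5 in two or more of three replicates, leaving out multi- or no-target dsRNAs, genes unexpressed in JW18 and A1 wells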", "note": "The screen tested about 24,000 reagents; shown is a random part of those that have a named target and a result. Over the whole deposit, about 1,210 (5%) are marked active. 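Inactive calls also include excluded dsRNAs with several or no targets, genes unexpressed in JW18, and well A1, regardless of score.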"}
{"gene":"GCS2beta","amplicon":"DRSC02960","Wolbachia per cell robust z, rep 1":-1.44,"Wolbachia per cell robust z, rep 2":0.0732,"Wolbachia per cell robust z, rep 3":-1.09,"call":"inactive"}
{"gene":"GCS2beta","amplicon":"DRSC30037","Wolbachia per cell robust z, rep 1":-8.08,"Wolbachia per cell robust z, rep 2":-2.27,"Wolbachia per cell robust z, rep 3":0.622,"call":"active"}
{"gene":"CG18809","amplicon":"DRSC19818","Wolbachia per cell robust z, rep 1":-3.61,"Wolbachia per cell robust z, rep 2":-1.56,"Wolbachia per cell robust z, rep 3":-1.14,"call":"active"}
{"gene":"CG18809","amplicon":"DRSC24451","Wolbachia per cell robust z, rep 1":0.509,"Wolbachia per cell robust z, rep 2":-0.25,"Wolbachia per cell robust z, rep 3":-0.286,"call":"inactive"}
{"gene":"Gp150","amplicon":"DRSC04618","Wolbachia per cell robust z, rep 1":0.654,"Wolbachia per cell robust z, rep 2":0.0832,"Wolbachia per cell robust z, rep 3":0.823,"call":"inactive"}
{"gene":"Gp150","amplicon":"DRSC29033","Wolbachia per cell robust z, rep 1":0.419,"Wolbachia per cell robust z, rep 2":0.583,"Wolbachia per cell robust z, rep 3":1.24,"call":"inactive"}
{"gene":"CG13924","amplicon":"DRSC08393","Wolbachia per cell robust z, rep 1":0.262,"Wolbachia per cell robust z, rep 2":0.277,"Wolbachia per cell robust z, rep 3":0.0239,"call":"inactive"}
{"gene":"Hsp60B","amplicon":"DRSC00542","Wolbachia per cell robust z, rep 1":-0.148,"Wolbachia per cell robust z, rep 2":1.21,"Wolbachia per cell robust z, rep 3":-0.227,"call":"inactive"}
{"gene":"angel","amplicon":"DRSC04670","Wolbachia per cell robust z, rep 1":0.118,"Wolbachia per cell robust z, rep 2":-0.565,"Wolbachia per cell robust z, rep 3":-1.68,"call":"inactive"}
{"gene":"angel","amplicon":"DRSC21326","Wolbachia per cell robust z, rep 1":-0.0258,"Wolbachia per cell robust z, rep 2":-1.2,"Wolbachia per cell robust z, rep 3":0.0391,"call":"inactive"}
{"gene":"CG13026","amplicon":"DRSC09906","Wolbachia per cell robust z, rep 1":-1.32,"Wolbachia per cell robust z, rep 2":-0.343,"Wolbachia per cell robust z, rep 3":-0.0171,"call":"inactive"}
{"gene":"eIF1","amplicon":"DRSC08520","Wolbachia per cell robust z, rep 1":1.1,"Wolbachia per cell robust z, rep 2":-2.33,"Wolbachia per cell robust z, rep 3":0.498,"call":"inactive"}
{"gene":"eIF1","amplicon":"DRSC30115","Wolbachia per cell robust z, rep 1":0.496,"Wolbachia per cell robust z, rep 2":2.33,"Wolbachia per cell robust z, rep 3":0.872,"call":"inactive"}
{"gene":"CG8187","amplicon":"DRSC07099","Wolbachia per cell robust z, rep 1":0.217,"Wolbachia per cell robust z, rep 2":1.41,"Wolbachia per cell robust z, rep 3":-0.308,"call":"inactive"}
{"gene":"Tsp66E","amplicon":"DRSC09683","Wolbachia per cell robust z, rep 1":-3.44,"Wolbachia per cell robust z, rep 2":-1.3,"Wolbachia per cell robust z, rep 3":-4.15,"call":"active"}
{"gene":"COX4L","amplicon":"DRSC04841","Wolbachia per cell robust z, rep 1":0.057,"Wolbachia per cell robust z, rep 2":0.327,"Wolbachia per cell robust z, rep 3":0.809,"call":"inactive"}
{"gene":"Cyp4d2","amplicon":"DRSC18458","Wolbachia per cell robust z, rep 1":0.48,"Wolbachia per cell robust z, rep 2":-0.923,"Wolbachia per cell robust z, rep 3":0.345,"call":"inactive"}
{"gene":"CG42542","amplicon":"DRSC15549","Wolbachia per cell robust z, rep 1":-0.128,"Wolbachia per cell robust z, rep 2":-0.111,"Wolbachia per cell robust z, rep 3":-0.926,"call":"inactive"}
{"gene":"CG42542","amplicon":"DRSC22264","Wolbachia per cell robust z, rep 1":-1.04,"Wolbachia per cell robust z, rep 2":-1.03,"Wolbachia per cell robust z, rep 3":-1.17,"call":"inactive"}
{"gene":"CG42542","amplicon":"DRSC26522","Wolbachia per cell robust z, rep 1":-4.19,"Wolbachia per cell robust z, rep 2":-0.776,"Wolbachia per cell robust z, rep 3":-0.678,"call":"inactive"}
{"gene":"CG42542","amplicon":"DRSC26676","Wolbachia per cell robust z, rep 1":1.53,"Wolbachia per cell robust z, rep 2":0.0219,"Wolbachia per cell robust z, rep 3":0.389,"call":"inactive"}
{"gene":"scpr-A","amplicon":"DRSC41316","Wolbachia per cell robust z, rep 1":0.439,"Wolbachia per cell robust z, rep 2":0.608,"Wolbachia per cell robust z, rep 3":-0.0619,"call":"inactive"}
{"gene":"Ino80","amplicon":"DRSC14760","Wolbachia per cell robust z, rep 1":0.442,"Wolbachia per cell robust z, rep 2":-1.63,"Wolbachia per cell robust z, rep 3":-1.33,"call":"inactive"}
{"gene":"Ino80","amplicon":"DRSC15333","Wolbachia per cell robust z, rep 1":-5.15,"Wolbachia per cell robust z, rep 2":0.35,"Wolbachia per cell robust z, rep 3":1.21,"call":"inactive"}
{"gene":"Ino80","amplicon":"DRSC15501","Wolbachia per cell robust z, rep 1":0.136,"Wolbachia per cell robust z, rep 2":-0.74,"Wolbachia per cell robust z, rep 3":-0.249,"call":"inactive"}
{"gene":"CG2691","amplicon":"DRSC19866","Wolbachia per cell robust z, rep 1":0.413,"Wolbachia per cell robust z, rep 2":-6.41,"Wolbachia per cell robust z, rep 3":0.218,"call":"inactive"}
{"gene":"pyd3","amplicon":"DRSC15459","Wolbachia per cell robust z, rep 1":-1.33,"Wolbachia per cell robust z, rep 2":-1.42,"Wolbachia per cell robust z, rep 3":-0.593,"call":"inactive"}
{"gene":"pyd3","amplicon":"DRSC21640","Wolbachia per cell robust z, rep 1":-1.28,"Wolbachia per cell robust z, rep 2":-0.99,"Wolbachia per cell robust z, rep 3":-0.634,"call":"inactive"}
{"gene":"Cds","amplicon":"DRSC10938","Wolbachia per cell robust z, rep 1":-1.34,"Wolbachia per cell robust z, rep 2":0.251,"Wolbachia per cell robust z, rep 3":-0.71,"call":"inactive"}
{"gene":"dunk","amplicon":"DRSC36514","Wolbachia per cell robust z, rep 1":-4.33,"Wolbachia per cell robust z, rep 2":-1.68,"Wolbachia per cell robust z, rep 3":-7.97,"call":"inactive"}
{"gene":"dunk","amplicon":"DRSC36515","Wolbachia per cell robust z, rep 1":0.128,"Wolbachia per cell robust z, rep 2":0.000253,"Wolbachia per cell robust z, rep 3":-1.22,"call":"inactive"}
